Anti-infective test results gathered from many reports (values: NIAID ChemDB through PubChem).

Common to all: tests on isolated targets; organism: HIV-1; target: Reverse transcriptase; read by: nucleotide incorporation; endpoint: fold resistance

An empty or dashed field is not shown. Fold resistance: result on the changed form divided by that on wild type. Rows are shuffled and stem from different studies.

compound,mutations,strain or isolate,result
CN(C)C(=O)Oc1nsnc1-c1c(Cl)cccc1Cl,RT-Y181C,IIIB-R (RT-Y181C),>39.2
CCc1cc(CCc2nc3ccccc3o2)c(=O)[nH]c1C,RT-K103N Y181C,-,4100
O=C1c2cccnc2C(=O)N1CCNC(=S)Nc1ccc(Br)cn1,RT-V106A,-,5.26
O=c1c2nccn2c2ccccc2n1CCNC(=S)Nc1ccc(Br)cn1,RT-Y181I,-,5.8
CCN1c2ncccc2C(=O)Nc2c(C)cc(NCCO)nc21,RT-Y181C,-,>11.11
CN(C)C(=O)/C=C/CSc1nc(N)cc(Cl)n1,RT-P236L,-,0.35
CCN1c2ncccc2C(=O)N(C)c2ccc(-c3cccc(N)c3)nc21,RT-Y181C,-,1.8
O=c1c2cccn2c2cccc(F)c2n1CCNC(=S)Nc1ccc(Br)cn1,RT-Y188L,-,22.2
CN(c1ncccc1CO)C1CCN(C(=O)c2cc3cc(NS(C)(=O)=O)ccc3[nH]2)CC1,RT-Y181C,IIIB,~3.5
CNC(=O)Nc1ccc2[nH]c(C(=O)N3CCC(N(C)c4ncccc4NC(C)C)CC3)cc2c1,RT-P236L,IIIB,0
Cc1ccc2c(c1)n(CCNC(=S)Nc1ccc(Br)cn1)c(=O)c1cccn12,RT-Y188L,-,25
CCN1c2ncccc2C(=O)N(C)c2ccc(-c3cc[nH]c3)nc21,RT-K103N,-,1.52
COc1ccc(/C=C/NC(=O)Nc2ccc(Cl)cn2)cc1OC,RT-V106A,-,2.86
Nc1ncnc2c1ncn2[C@H]1CC[C@@H](COP(=O)(O)OP(=O)(O)OP(=O)(O)O)O1,RT-A62V V75I F77L F116Y Q151M,-,8.6
Cc1c(Sc2ccccc2)n(COCCO)c(=O)[nH]c1=O,RT-Y181I,-,20
O=c1c2cccn2c2ccccc2n1CCNC(=S)Nc1ccc(Br)cn1,RT-L100I,-,1.81
Nc1ncnc2c1ncn2[C@@H]1O[C@H](COP(=O)(O)OP(=O)(O)OP(=O)(O)O)C[C@@H]1F,RT-Q151M,-,1.5
Nc1ccn([C@H]2CC[C@@H](COP(=O)(O)OP(=O)(O)OP(=O)(O)O)O2)c(=O)n1,RT-L74V T215Y,HXB2,14.7
CCN(C)C(=O)Oc1nsnc1-c1c(Cl)cccc1Cl,RT-Y181C,IIIB-R (RT-Y181C),415